The target of one experiment is fulvous fruit bat ACE2. Nature of the experiment: SPR. The settings on record: domain or fragment.
In experiment [1] the target is minke whale ACE2 ectodomain fused with mFc (minke whale (Balaenoptera acutorostrata scammoni)). Description: SPR. The following applies: domain or fragment.

Usually Kd stands for the concentration at which binding is half-saturated. Read a low Kd as a tighter complex.

In the case of SARS-CoV-2 PT-RBD (from UniProt P0DTC2), the Kd with fulvous fruit bat ACE2 turned out to be 5280 nM; in experiment [1], 401 nM.
